Assay results: publication PMC9863266, “Preclinical Studies and Drug Combination of Low-Cost Molecules for Chagas Disease” (Pharmaceuticals, 2022)

Key:
Assay type in all cases: cell-based
[1] = test system: Y strain of T. cruzi in the epimastigote form; test: Mechanism of death by 1H-NMR; details: for CH2/CH3 Ratio: 10 times IC50, control 0.27
[2] = test system: epimastigote form of T. cruzi, Tulahuen 2 strain; test: Mechanism of death by flow cytometry, AV/IP labeling; details: 20 × IC50
Method: Parasites were immediately analyzed on an Accuri C6 flow cytometer (BD Bioscience, Franklin Lakes, New Jersey, U.S.). […] Ten thousand events were analyzed for each of the two independent experiments. Data were analyzed using BD CSampler software (BD Bioscience). Untreated parasites were used as a control. For the positive control of apoptosis and necrosis, the parasites were treated with hydrogen peroxide (H2O2) 50 µM and 100 µM for 2.5 h, respectively. These single-spot controls were used to calculate color compensation for flow cytometry.

[3] = test system: epimastigote form of T. cruzi, Tulahuen 2 strain; test: Viability by flow cytometry, CA-AM/IP labeling; details: 20 × IC50
Method: Additionally, we evaluated the viability of treated parasites by flow cytometry analysis after incubation with methylated acetoxycalcein (CA-AM) and propidium iodide (IP). […] Since the methodology used to determine the IC50 is based on 5 days of incubation, doses 20 times higher were used to analyze cell viability in shorter times. Similarly, these compounds’ concentrations were used to determine the death mechanism involved at the aforementioned times.
Viability studies of parasites by flow cytometry: The feasibility studies were carried out by evaluating the esterase activity of the parasites using Acetoxymethylated Calcein (CA-AM) and IP (Thermo Fisher Scientific). […] Fluorescence intensity for 10,000 events was acquired from two independent experiments and data were analyzed using BD CSampler software (BD Bioscience).

## O=C(Cn1ccnc1[N+](=O)[O-])NCc1ccccc1 [Bnz, Benznidazole]
[1]
  CH2/CH3 Ratio: 0.50
[2]
  Cell death mechanism from AV/IP labeling: no apoptosis, late apoptosis, or necrosis was observed

## O=C(/C=C/C=C/c1ccco1)/C=C/C=C/c1ccco1 [Compound 793]
[1]
  Mechanism of death suggested by 1H-NMR: apoptosis and late necrosis
  CH2/CH3 Ratio: 3.00 *
[3]
  Cell death mechanism from CA-AM/IP labeling: late apoptosis/necrosis mechanism
[2]
  Cell death mechanism from AV/IP labeling: late apoptosis

Marks after values point to notes of the source that are not given here.
